RC index of single-base changes in HIV-1 integrase

From the data files of Al-Mawsawi et al. 2014, doi:10.1186/s12977-014-0124-6.

Protein: integrase of HIV-1 NL4-3, numbered from its first residue. The source prints no sequence; the chain below is taken from UniProt P12497, a closely related isolate, and fits the source at the 252 positions it covers.
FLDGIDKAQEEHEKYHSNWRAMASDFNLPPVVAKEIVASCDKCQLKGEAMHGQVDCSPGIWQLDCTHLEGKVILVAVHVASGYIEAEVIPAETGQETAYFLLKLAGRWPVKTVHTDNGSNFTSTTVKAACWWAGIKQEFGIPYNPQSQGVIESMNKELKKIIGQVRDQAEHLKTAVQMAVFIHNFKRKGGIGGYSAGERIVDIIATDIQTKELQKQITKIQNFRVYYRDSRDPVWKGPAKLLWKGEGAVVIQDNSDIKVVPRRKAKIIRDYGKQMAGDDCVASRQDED
"Other frame" gives the effect on an overlapping gene as the source lists it; other overlaps (genes, RNA elements) are not shown.

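Seven fragments of pNL4-3 were mutated by error-prone PCR, and each virus pool was passaged in CEM T cells. The RC index is the frequency of a change after passage round 2 divided by its frequency in the plasmid library.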

A higher RC index is a better tolerated change; approximate classes are lethal up to 0.1, attenuated to 0.2, tolerated above. Substitutions are written as wild-type residue, site number, new residue. Input reads are the counts in the plasmid library. Since each clone held several changes (about five per kb), neutral changes can read low. Nucleotide positions follow pNL4-3. An index over 1, which the authors read as above wild type, was rare (1.9% of all changes in the genome).

| change | base | other frame | input reads | RC |
|---|---|---|---|---|
| D288N | G5091A | Vif silent | 226 | 0.328 |
| A205V | C4843T | none | 396 | 0.114 |
| K258R | A5002G | none | 283 | 0.0238 |
| G70V | G4438T | none | 124 | 0.145 |
| T93I | C4507T | none | 281 | 0.296 |
| A205P | G4842C | none | 86 | 0.0419 |
| F1L | T4230C | none | 140 | 0.129 |
| V260E | T5008A | none | 238 | 0.0566 |
| L104F | A4541T | none | 222 | 0.0267 |
| T66A | A4425G | none | 187 | 0.139 |
| C40S | T4347A | none | 303 | 0.0446 |
| G94R | G4509A | none | 356 | 0.189 |
| K244N | A4961T | none | 389 | 0.0577 |
| K264I | A5020T | none | 343 | 0.0196 |
| N18I | A4282T | none | 795 | 0.0794 |
| W19G | T4284G | none | 327 | 0.117 |
| K160E | A4707G | none | 207 | 0.0863 |
| P109T | C4554A | none | 163 | 0.0971 |
| V54E | T4390A | none | 261 | 0.0459 |
| Y143N | T4656A | none | 405 | 0.0309 |
| I200V | A4827G | none | 376 | 0.0479 |
| I251L | A4980T | none | 138 | 0.0325 |
| S123N | G4597A | none | 639 | 0.254 |
| V234I | G4929A | none | 403 | 0.0780 |
| H67Q | T4430A | none | 271 | 0.0368 |
| A129S | G4614T | none | 146 | 0.0948 |
| F121Y | T4591A | none | 387 | 0.0409 |
| A86S | G4485T | none | 176 | 0.0681 |
| D55Y | G4392T | none | 296 | 0.169 |
| Q9R | A4255G | none | 436 | 0.0879 |
| R187K | G4789A | none | 268 | 0.729 |
| I208T | T4852C | none | 198 | 0.0910 |
| W61R | T4410C | none | 288 | 0.0485 |
| I161T | T4711C | none | 164 | 0.109 |
| G193V | G4807T | none | 275 | 0.138 |
| V72I | G4443A | none | 269 | 0.275 |
| D3Y | G4236T | none | 288 | 0.117 |
| N144S | A4660G | none | 258 | 0.0554 |
| A133G | C4627G | none | 114 | 0.0694 |
| V113L | G4566C | none | 220 | 0.252 |
| T206S | A4845T | none | 520 | 0.0554 |
| F26Y | T4306A | none | 424 | 0.0106 |
| G59R | G4404C | none | 105 | 0.0190 |
| K14N | A4271T | none | 510 | 0.0442 |
| W131S | G4621C | none | 104 | 0.0380 |
| I5V | A4242G | none | 389 | 0.0811 |
| M178I | G4763A | none | 255 | 0.140 |
| I200L | A4827T | none | 335 | 0.0538 |
| D256V | A4996T | none | 370 | 0.0364 |
| K14R | A4270G | none | 298 | 0.0530 |
| W19L | G4285T | none | 148 | 0.168 |
| D25E | T4304A | none | 618 | 0.0657 |
| K156E | A4695G | none | 283 | 0.0568 |
| K219N | A4886T | none | 254 | 0.0284 |
| S24C | A4299T | none | 496 | 0.0500 |
| F223L | T4896C | none | 150 | 0.156 |
| D270H | G5037C | none | 51 | 0.0440 |
| D6H | G4245C | none | 52 | 0.520 |
| N120D | A4587G | none | 272 | 0.0364 |
| V79E | T4465A | none | 323 | 0.0495 |
| D202V | A4834T | none | 429 | 0.0294 |
| F26V | T4305G | none | 57 | 0.0396 |
| E69K | G4434A | none | 373 | 0.798 |
| K46E | A4365G | none | 797 | 0.0402 |
| R199G | A4824G | none | 358 | 0.0352 |
| S255C | A4992T | none | 333 | 0.0135 |
| I203M | A4838G | none | 214 | 0.126 |
| D6G | A4246G | none | 253 | 0.0624 |
| I161V | A4710G | none | 162 | 0.110 |
| F223I | T4896A | none | 131 | 0.0550 |
| F121I | T4590A | none | 351 | 0.0338 |
| N18Y | A4281T | none | 312 | 0.0795 |
| W243G | T4956G | none | 113 | 0.0596 |
| I268N | T5032A | none | 263 | 0.0512 |
| C65S | G4423C | none | 156 | 0.0896 |

The opening 5 entries, copied out:

change,base,other frame,input reads,RC
D288N,G5091A,Vif silent,226,0.328
A205V,C4843T,none,396,0.114
K258R,A5002G,none,283,0.0238
G70V,G4438T,none,124,0.145
T93I,C4507T,none,281,0.296